{"source": "paper PMC11684019", "about": "“Unveiling the Antimycobacterial Potential of Novel 4-Alkoxyquinolines: Insights into Selectivity, Mechanism of Action, and In Vivo Exposure” (Journal of Medicinal Chemistry, 2024)", "tested_on": "M. tuberculosis qcrB-T313A mutant strain", "assay_type": "cell-based, Mycobacterium tuberculosis"}
{"smiles": "CCc1ccc(NCCCOc2cc(C)nc3ccc(Br)cc23)cc1", "note": "[8t, N-(3-((6-bromo-2-methylquinolin-4-yl)oxy)propyl)-4-ethylaniline]", "values": [{"measurement": "MIC against qcrB-T313A resistant strain relative to MIC H37Rv", "value": "approximately 62.5 fold"}]}
